From US10471082B2, “Flavivirus protease inhibitors” (priority 2012, dated 2019)
The index is printed as in the source, without its formula.

What was measured:
[1] = test system: WNV replicon-expressing Vero cells; test: WNV replicon assay (Renilla luciferase); assay type: cell-based
From the text: (§1) The efficacy of the compounds was also examined in cell-based assays performed in mammalian cells. Mammalian cells are the host for replication of the virus; a compound added to the growth medium of the mammalian cell in which a replicon RNA or dengue virus is replicating, the compound of interest could permeate the cell and interfere with the replication process. If there is a quantitative read-out of replication efficiency, the potency of the inhibitor compound could be evaluated in a quantifiable manner. There are two types of quantifiable assays available both employing mammalian cells; the first is the Baby Hamster Kidney (BHK) or monkey kidney (Vero) cells harboring DENV-2 or WNV replicon RNA, respectively, in a continuously replicating state and these are “stable replicon-expressing” cells. […] The inhibition of infectivity of the virus by the compound is measured by the extent of reduction of the titer of virus determined by plaque assay.
(§2) Both drug efficacy and cytotoxicity were measured using the same experimental plate. […] Cells were then washed with PBS and the luminescence signal from Renilla luciferase activity was read using the Renilla luciferase assay kit (Promega Corp; Fitchburg, Wis.) using a luminometer (Berthold Technologies, Inc.; Oak Ridge, Tenn.). […] The EC50 and CC50 values of selected compounds were calculated similar to IC50s using GraphPad Prism v5. […]

[2] = test system: DENV2 replicon-expressing BHK21 cells; test: DENV2 replicon assay (Renilla luciferase); assay type: cell-based
From the text: as §1, §2

SMILES	Therapeutic index (TI) [1]	Therapeutic index (TI) [2]
CCOC(=O)c1oc2c(O)c(O)ccc2c(=O)c1-c1cnn(-c2ccccc2)c1 [Compound V]	17	17
Cc1ccc(C2=NC(=O)/C(=C/c3cc(O)c(O)c(Br)c3)S2)cc1 [Compound III]	35	56
